Pooled drug test results. Numbers come from NIAID ChemDB, via PubChem.

Shared fields: tests in culture; organism: HIV-1

Fold resistance has wild type as its base.

structure,mutations,cell line,method,strain,conditions,read-out,dose,value
Cc1cn([C@H]2C[C@H](N=[N+]=[N-])[C@@H](COP(=O)(O)OCCO[C@H]3O[C@H](CO)[C@@H](O)[C@H](O)[C@@H]3O)O2)c(=O)[nH]c1=O,-,U-937,RT activity,LAV-Bru,7 d,inhibition,1 µM,0%
Cc1cc(OCCCS(N)(=O)=O)ccc1NC(=O)COc1ccc(Cl)cc1C(=O)c1cc(F)cc(C(F)(F)F)c1,RT-V106I,HeLa + HELA CD4+,β-galactosidase,HXB2,-,fold resistance,-,~1
S=C(NCCc1ccccc1)N1CCCCC1,-,MT-4,cytopathic effect / XTT,-,-,inhibition,10 µg/mL,0%
Cc1cc(C#N)cc(C(=O)c2cc(Cl)ccc2OCC(=O)Nc2ccc(OCCCN3CC=CC3)cc2C)c1,RT-L100I,HeLa + HELA CD4+,β-galactosidase,HXB2,-,fold resistance,-,~1
CCc1c(Sc2cc(C)cc(C)c2)n(COCCO)c(=S)[nH]c1=O,RT-E138K,CEM,syncytia,IIIB,-,fold resistance,-,10
Cc1cc(S(N)(=O)=O)ccc1NC(=O)COc1ccc(Cl)cc1C(=O)c1cc(F)cc(C#N)c1,RT-K103N P225H,HeLa + HELA CD4+,β-galactosidase,HXB2,-,fold resistance,-,~1
Cc1nc(NC(=O)NCCc2ccccc2)sc1C,-,MT-4,RT activity,-,-,inhibition,100 µg/mL,94%
CCc1c(Sc2cc(C)cc(C)c2)n(COCCO)c(=O)[nH]c1=O,RT-E138K,CEM,syncytia,IIIB,-,fold resistance,-,10
Cc1ccc(-c2ccc3c(c2)C=C(C(=O)Nc2ccc(C[N+](C)(C)C4CCOCC4)cc2)CCC3)cc1,-,PBMC,p24,CM7 CLADE C,-,inhibition,1 µM,97.4%
CCOCn1c(Cc2ccccc2)c(C(C)C)c(=O)[nH]c1=O,RT-Y181I,CEM,syncytia,IIIB,-,fold resistance,-,13500
Cc1cc(Cl)cc(C(=O)c2cc(Cl)ccc2OCC(=O)Nc2ccc(S(N)(=O)=O)cc2C)c1,RT-V106A Y181C,HeLa + HELA CD4+,β-galactosidase,HXB2,-,fold resistance,-,~10
Cc1cc(C)cc(Cc2c(C(C)C)c(=O)[nH]c(=O)n2COCCO)c1,RT-E138K,CEM,syncytia,IIIB,-,fold resistance,-,3.12
Cc1cc(S(N)(=O)=O)ccc1NC(=O)COc1ccc(Cl)cc1C(=O)c1cc(F)cc(F)c1,RT-V106I,HeLa + HELA CD4+,β-galactosidase,HXB2,-,fold resistance,-,~1
CCOCn1c(Sc2ccccc2)c(CC)c(=O)[nH]c1=S,RT-K103N,CEM,syncytia,IIIB TIBO R82913-resistant (RT K103N),-,fold resistance,-,100
Cc1cc(S(N)(=O)=O)ccc1NC(=O)COc1ccc(Cl)cc1C(=O)c1cccc(C#N)c1,RT-G190A,HeLa + HELA CD4+,β-galactosidase,HXB2,-,fold resistance,-,~1
CCCCCCCCCCCCCCCCOP(=O)(OCCO[C@@H]1O[C@H](CO)[C@@H](O)[C@H](O)[C@@H]1O)OC[C@H]1O[C@@H](n2cc(C)c(=O)[nH]c2=O)C[C@@H]1N=[N+]=[N-],-,U-937,RT activity,LAV-Bru,14 d,inhibition,1 µM,0%
Cc1ccc(C2CC2)c(-c2ccc3c(c2C)CCCO3)c1[C@H](OC(C)(C)C)C(=O)O,NRTI/NNRTI resistant NLAY351753,MT-4,luminescence,NL4-3,-,fold resistance,-,1
CC(C)=CCOc1cc(NC(=S)c2ccoc2C)ccc1Cl,RT-A98G,CEM + CEM-SS,p24,NL4-3,-,fold resistance,-,3.33
CCCCN1C(=O)[C@@H](Cc2ccccc2)NC1=S,-,MT-4,cytopathic effect / XTT,-,-,inhibition,100 µg/mL,100%
CC(C)c1c(Sc2ccccc2)n(COCCO)c(=O)[nH]c1=O,RT-Y188H,CEM,syncytia,IIIB,-,fold resistance,-,>357
O=C(COc1ccc(Cl)cc1C(=O)c1ccco1)Nc1ccc2cn[nH]c2c1,RT-Y181C,HeLa + HELA CD4+,β-galactosidase,HXB2,-,fold resistance,-,~10
Cc1ccc(C2CC2)c(-c2ccc3c(c2)CCCO3)c1[C@H](OC(C)(C)C)C(=O)O,PI-resistant ARP-11807 (L33F/I47A/L63P/A71V/V82A),MT-4,luminescence,NL4-3,-,fold resistance,-,1
CCc1c(Sc2cc(C)cc(C)c2)n(COCc2ccccc2)c(=S)[nH]c1=O,RT-Y188H,CEM,syncytia,IIIB,-,fold resistance,-,162
Cc1cc(S(N)(=O)=O)ccc1NC(=O)COc1ccc(Cl)cc1C(=O)c1cc(F)cc(C(F)(F)F)c1,RT-P225H,HeLa + HELA CD4+,β-galactosidase,HXB2,-,fold resistance,-,~1
CCOCn1c(Sc2ccccc2)c(CC)c(=O)[nH]c1=O,RT-Y188H,CEM,syncytia,IIIB,-,fold resistance,-,>5000
CCCCCCCCCCCCCCCCOP(=O)(OC[C@H]1OC(O)[C@@H](O)[C@@H](O)[C@@H]1O)OC[C@H]1O[C@@H](n2cc(C)c(=O)[nH]c2=O)C[C@@H]1N=[N+]=[N-],-,U-937,RT activity,LAV-Bru,14 d,inhibition,0.2 µM,0%

The first 3 rows once more:

structure,mutations,cell line,method,strain,conditions,read-out,dose,value
Cc1cn([C@H]2C[C@H](N=[N+]=[N-])[C@@H](COP(=O)(O)OCCO[C@H]3O[C@H](CO)[C@@H](O)[C@H](O)[C@@H]3O)O2)c(=O)[nH]c1=O,-,U-937,RT activity,LAV-Bru,7 d,inhibition,1 µM,0%
Cc1cc(OCCCS(N)(=O)=O)ccc1NC(=O)COc1ccc(Cl)cc1C(=O)c1cc(F)cc(C(F)(F)F)c1,RT-V106I,HeLa + HELA CD4+,β-galactosidase,HXB2,-,fold resistance,-,~1
S=C(NCCc1ccccc1)N1CCCCC1,-,MT-4,cytopathic effect / XTT,-,-,inhibition,10 µg/mL,0%

Inhibition is in % at the dose shown (toxicity tests: loss of growth or viability). An empty or dashed field is not shown. Lines come from different laboratories, so protocols vary.